In patent US20230287070A1, “NOVEL TUMOR-SPECIFIC ANTIGENS FOR ACUTE MYELOID LEUKEMIA (AML) AND USES THEREOF” (UNIVERSITE DE MONTREAL, priority 2020, published 2023):
Some entries repeat one wording, which the source may state once for all of them.

Legend:
[1] = test system: AML specimens vs MPCs; assay: Fold change of RNA expression between AML specimens and MPCs; parameters: species or system human
[2] = test system: AML, MPCs, other normal hematopoietic cells and normal adult tissues, including mTECs; assay: Classification of MAPs of interest (MOI) by decision tree on RNA expression (TSA^hi, TSA^lo, TAA, HSA); parameters: species or system human; conditions: decision tree on RNA expression in AML, MPCs and normal tissues (thresholds 8.55 RPHM, FC 5)

Question: For VLFGGKVSGA (listed as Homo sapiens), which AML/MPC [1] is on record?
Answer: 18.9

Question: And the Classific. [2]?
Answer: TSA^hi (TSAs with FC of at least 5 between AML and MPCs were flagged as TSA^hi)
